Among the data in the OPERA property sets (Mansouri et al. 2018) are log10 OH rate constant (cm³/molecule/s) values, retold here.

The compound `COP(=S)(Cl)OC` returned a log10 OH rate constant (cm³/molecule/s) of -10.2.
